Anti-infective test results gathered from many reports (values: NIAID ChemDB through PubChem).

Common to all: tests in culture; agent: HIV-1; read-out: EC50

ECn is the concentration giving n% inhibition of infection, replication or growth. Neighbouring rows are from separate reports. An empty or dashed field is not shown.

smiles,strain,changes,cells,method,result
Cc1cc(OCCOc2ncc(-c3cnc(C)c([C@H](OC(C)(C)C)C(=O)O)c3N3CCC(C)(C)CC3)cc2F)ccc1F,NL4-3,,MT-2,luminescence,0.003 µM
CC(C)C1=C2[C@H]3CC[C@@H]4[C@@]5(C)CC[C@H](OC(=O)[C@H]6C[C@@H](C(=O)O)C6(C)C)C(C)(C)[C@@H]5CC[C@@]4(C)[C@]3(C)CC[C@@]2([C@@H](O)CNCC(C)(C)NC(=O)c2cccnc2)CC1=O,92HT599,,MT-2,p24 / ELISA,<1 µM
Cc1cc(S(N)(=O)=O)ccc1NC(=O)COc1ccc(Cl)cc1C(=O)c1cc(F)cc(C(F)(F)F)c1,HXB2,RT-V108I,HeLa + HELA CD4+,β-galactosidase,<0.01 µM
CC(C)C1=C2[C@H]3CC[C@@H]4[C@@]5(C)CC[C@H](OC(=O)[C@H]6C[C@@H](C(=O)O)C6(C)C)C(C)(C)[C@@H]5CC[C@@]4(C)[C@]3(C)CC[C@@]2([C@@H](O)CNC(=O)C(C)(C)NC(=O)c2ccncc2)CC1=O,92HT599,,MT-2,p24 / ELISA,<1 µM
Cc1ncc(-c2ccc(N(C)CCOc3ccccc3)nc2)c(N2CCC(C)(C)CC2)c1[C@H](OC(C)(C)C)C(=O)O,NL4-3,,MT-2,luminescence,0.0016 µM
[2H]C(CN)(CNC(=O)C[C@@]12CC[C@]3(C)[C@H](CC[C@@H]4[C@@]5(C)CC[C@H](OC(=O)[C@H]6C[C@@H](C(=O)O)C6(C)C)C(C)(C)[C@@H]5CC[C@]43C)C1=C(C(C)C)C(=O)C2)NC(=O)c1ccc(Cl)cc1,92HT599,,MT-2,p24 / ELISA,<1 µM
O=C(C(=O)N1CCN(C(=O)c2cccc(S)c2)CC1)c1c[nH]c2cccc(Cl)c12,,,HeLa + HELA CD4+/CCR5,luciferase,<10 µM
CS(=O)(=O)Nc1ccc(NC(=O)COc2ccc(Cl)cc2C(=O)c2ccccc2)cc1,WTRVA,,HeLa + HELA CD4+,β-galactosidase,<0.01 µM
CCCc1cc(=O)oc2c3c(c4c(c12)OC(C)(C)CC4)O[C@@H](C)[C@H](C)[C@@H]3O,Thiazolobenzimidazole-resistant (RT V108I),RT-V108I,CEM + CEM-SS,XTT,3.5 µM
Cc1nc(C(=O)NC(C)(C)CNC[C@H](O)[C@@]23CC[C@]4(C)[C@H](CC[C@@H]5[C@@]6(C)CC[C@H](OC(=O)[C@H]7C[C@@H](C(=O)O)C7(C)C)C(C)(C)[C@@H]6CC[C@]54C)C2=C(C(C)C)C(=O)C3)cs1,92HT599,,MT-2,p24 / ELISA,<1 µM
C=CC(CC)Oc1ccc(-c2cnc(C)c([C@H](OC(C)(C)C)C(=O)O)c2N2CCC(C)(C)CC2)nc1,NL4-3,,MT-2,luminescence,0.0023 µM
O=C(C(=O)N1CCN(C(=O)c2ccccc2)CC1)c1c[nH]c2cccc(Br)c12,,,HeLa + HELA CD4+/CCR5,luciferase,<10 µM
CC(C)C1=C2[C@H]3CC[C@@H]4[C@@]5(C)CC[C@H](OC(=O)[C@H]6C[C@@H](C(=O)O)C6(C)C)C(C)(C)[C@@H]5CC[C@@]4(C)[C@]3(C)CC[C@@]2([C@@H](O)CNCc2ccncc2)CC1=O,92HT599,,MT-2,p24 / ELISA,<1 µM
Cc1ncc(-c2ccc(N(C)CCOc3ccc(C(N)=O)cc3)cn2)c(N2CCC(C)(C)CC2)c1[C@H](OC(C)(C)C)C(=O)O,NL4-3,,MT-2,luminescence,0.5012 µM
C[C@@H]1CN(C(=O)c2ccccn2)CCN1C(=O)C(=O)c1c[nH]c2c(F)ccc(F)c12,,,HeLa + HELA CD4+/CCR5,luciferase,<10 µM
Cc1cc(C#N)cc(C(=O)c2cc(Cl)ccc2OCC(=O)Nc2ccc(S(N)(=O)=O)cc2C)c1,HXB2,RT-K103N,HeLa + HELA CD4+,β-galactosidase,<0.01 µM
CCC(=O)c1ccc(F)c([C@@H]2C[C@@H]2NC(=O)Nc2ccc(C#N)cn2)c1O,LAI,NNRTI-resistant (RT K103N/G190A),TZM-bl,β-galactosidase / luminescence,0.00107 µM
Cc1ccc(F)c2c(C(=O)C(=O)N3CCN(C(=O)c4ccccc4)C[C@H]3C)c[nH]c12,,,HeLa + HELA CD4+/CCR5,luciferase,<10 µM
Cc1ccc(C)n1-c1ccc(C(=O)O)c(O)c1,93UG065 X4 CLADE D,,PBMC/5.25M7,luciferase / cell fusion,25.73 µM
Cc1ncc(-c2cnc(OCCOC(C)(C)C)c(F)c2)c(N2CCC(C)(C)CC2)c1[C@H](OC(C)(C)C)C(=O)O,NL4-3,,MT-2,luminescence,0.0019 µM
C[C@H]1CN(C(=O)c2ccccc2)CCN1C(=O)C(=O)c1c[nH]c2c([N+](=O)[O-])cccc12,,,HeLa + HELA CD4+/CCR5,luciferase,<10 µM
CC(C)C1=C2[C@H]3CC[C@@H]4[C@@]5(C)CC[C@H](OC(=O)[C@H]6C[C@@H](C(=O)O)C6(C)C)C(C)(C)[C@@H]5CC[C@@]4(C)[C@]3(C)CC[C@@]2(CCNCc2ccc(CN3CCOCC3)cc2)CC1=O,92HT599,,MT-2,p24 / ELISA,<1 µM
Cc1cc(S(N)(=O)=O)ccc1NC(=O)COc1ccc(Cl)cc1C(=O)c1cccc(C#N)c1,HXB2,RT-E138K,HeLa + HELA CD4+,β-galactosidase,<0.01 µM
O=C(C(=O)N1CCN(C(=O)c2cscn2)CC1)c1c[nH]c2cccc(F)c12,,,HeLa + HELA CD4+/CCR5,luciferase,<10 µM
CCc1cc(C#N)cc(C(=O)c2cc(Cl)ccc2OCC(=O)Nc2ccc(S(N)(=O)=O)cc2C)c1,HXB2,RT-V106A Y181C,HeLa + HELA CD4+,β-galactosidase,<0.01 µM
Cc1ncc(-c2ccc(OCC(C)CF)cn2)c(N2CCC(C)(C)CC2)c1[C@H](OC(C)(C)C)C(=O)O,NL4-3,,MT-2,luminescence,0.0022 µM
CC(C)C1=C2[C@H]3CC[C@@H]4[C@@]5(C)CC[C@H](OC(=O)[C@H]6C[C@@H](C(=O)O)C6(C)C)C(C)(C)[C@@H]5CC[C@@]4(C)[C@]3(C)CC[C@@]2(CC(=O)NC(C)(CN)CNC(=O)c2ccc(Cl)cc2)CC1=O,92HT599,,MT-2,p24 / ELISA,<1 µM
Cc1cc(S(N)(=O)=O)ccc1NC(=O)COc1ccc(Cl)cc1C(=O)c1cc(F)cc(C(F)(F)F)c1,IIIB,RT-G190A,HELA MAGI,luciferase,0.0042 µM
Cc1cc(C#N)cc(C(=O)c2cc(Cl)ccc2OCC(=O)Nc2ccc(S(N)(=O)=O)nc2C)c1,HXB2,RT-K103N,HeLa + HELA CD4+,β-galactosidase,<0.01 µM
COc1cc(Cl)ccc1C(=O)NC(C)(C)CNC(=O)C[C@@]12CC[C@]3(C)[C@H](CC[C@@H]4[C@@]5(C)CC[C@H](OC(=O)[C@H]6C[C@@H](C(=O)O)C6(C)C)C(C)(C)[C@@H]5CC[C@]43C)C1=C(C(C)C)C(=O)C2,92HT599,,MT-2,p24 / ELISA,<1 µM
C[C@@H]1CN(C(=O)c2ccccn2)CCN1C(=O)C(=O)c1c[nH]c2cccc(F)c12,,,HeLa + HELA CD4+/CCR5,luciferase,<10 µM
Cc1ncc(-c2ccc(OCC3(C)CC3)nc2)c(N2CCC(C)(C)CC2)c1[C@H](OC(C)(C)C)C(=O)O,NL4-3,,MT-2,luminescence,0.0075 µM
Nc1ccc(C(=O)N2CCN(C(=O)C(=O)c3c[nH]c4cccc(Cl)c34)CC2)cc1,,,HeLa + HELA CD4+/CCR5,luciferase,<10 µM
CC(C)C1=C2[C@H]3CC[C@@H]4[C@@]5(C)CC[C@H](OC(=O)[C@H]6C[C@@H](C(=O)O)C6(C)C)C(C)(C)[C@@H]5CC[C@@]4(C)[C@]3(C)CC[C@@]2([C@@H](O)CNC(=O)c2ccc(Cl)c(Cl)c2)CC1=O,92HT599,,MT-2,p24 / ELISA,<1 µM
Cc1cc(C#N)cc(C(=O)c2cc(Cl)ccc2OCC(=O)Nc2cnc(S(N)(=O)=O)cc2C)c1,HXB2,RT-P236L,HeLa + HELA CD4+,β-galactosidase,<0.01 µM

The last 5 rows once more:

smiles | strain | changes | cells | method | result
C[C@@H]1CN(C(=O)c2ccccn2)CCN1C(=O)C(=O)c1c[nH]c2cccc(F)c12 |  |  | HeLa + HELA CD4+/CCR5 | luciferase | <10 µM
Cc1ncc(-c2ccc(OCC3(C)CC3)nc2)c(N2CCC(C)(C)CC2)c1[C@H](OC(C)(C)C)C(=O)O | NL4-3 |  | MT-2 | luminescence | 0.0075 µM
Nc1ccc(C(=O)N2CCN(C(=O)C(=O)c3c[nH]c4cccc(Cl)c34)CC2)cc1 |  |  | HeLa + HELA CD4+/CCR5 | luciferase | <10 µM
CC(C)C1=C2[C@H]3CC[C@@H]4[C@@]5(C)CC[C@H](OC(=O)[C@H]6C[C@@H](C(=O)O)C6(C)C)C(C)(C)[C@@H]5CC[C@@]4(C)[C@]3(C)CC[C@@]2([C@@H](O)CNC(=O)c2ccc(Cl)c(Cl)c2)CC1=O | 92HT599 |  | MT-2 | p24 / ELISA | <1 µM
Cc1cc(C#N)cc(C(=O)c2cc(Cl)ccc2OCC(=O)Nc2cnc(S(N)(=O)=O)cc2C)c1 | HXB2 | RT-P236L | HeLa + HELA CD4+ | β-galactosidase | <0.01 µM